Test results as given in patent publication US20210244790A1 (priority 2018, published 2021).
Numbered stars: 1 amine (or outer) side, 2 acyl side, 3 side chain; on linkers, the order of the positions; unused ones are H or OH. Bridge positions count the residues as written; N and C are the ends. Square brackets hold non-standard residues; d marks the D form. Peptide text beside a SMILES is read from it. ξ: configuration not given here. ξAsn(3ξ-OH) = NC(=O)C(O)C(N)C(=O)O; X1 = CC(C)CCCC(CC(=O)[*:1])O[*:2]; NMeF = CN[CH](Cc1ccccc1)C(=O)O; NMeV = CN[CH](C(=O)O)C(C)C; Orn = NCCC[CH](N)C(=O)O

System: MRSA
Test: Number of cells after 24 hour incubation in 5% FBS-added CAMHB
Details: initial 6.1 × 10^5, 5% FBS CAMHB

Compound | Number of cells After 24 hours (lotilibcin 0.25 μg/mL alone) | Number of cells After 24 hours (lotilibcin 2.5 μg/mL alone) | Number of cells After 24 hours (boric acid 1250 μg/mL alone) | Number of cells After 24 hours (boric acid 2500 μg/mL alone)
CC(C)CCCC1CC(=O)NC(CO)C(=O)NC(C(O)C(N)=O)C(=O)NC(CO)C(=O)NCC(=O)N(C)C(Cc2ccccc2)C(=O)NC(CC(C)C)C(=O)NC(CCCN)C(=O)NC(CCC(=O)O)C(=O)NC(CC(N)=O)C(=O)NC(Cc2c[nH]c3ccccc23)C(=O)NC(CCCN)C(=O)N(C)C(C(C)C)C(=O)O1 (stereo not shown) [Lotilibcin, lotilibcin] (S[ξAsn(3ξ-OH)]SG[NMeF]L[Orn]ENW[Orn][NMeV]; linker N-C via X1; configuration not given here) | 2.3 × 10^5 CFU/mL | 7.6 × 10^2 CFU/mL | – | –
OB(O)O [Boric acid] | – | – | 1.5 × 10^7 CFU/mL | 1.9 × 10^6 CFU/mL
